Earlier results in US20060094755A1, “Novel quinoline-based metal chelators as antiviral agents” (Bioflexis, LLC, priority 2004, published 2006).

Target: HIV-1 IN (integrase) (Human immunodeficiency virus type 1 group M subtype B, UniProt P04585)
Conditions: cited from earlier work

## O=C(CC(=O)c1ccc(Cc2cccc(F)c2)o1)c1nc[nH]n1
  IC50: 10 nM
